Data from US6316190.
The exact form of at least one protein or probe is not confirmed.

Biological target: HIV-1 nucleocapsid protein (NC), wild type (Human immunodeficiency virus 1) (UniProt P12493)
Experiment: SPR
Conditions: one NC per oligo, purified recombinant protein, label: biotin, single-stranded DNA, only the motif is given

Sequence	binding result (affinity roughly equal to TGTGT)	binding result (affinity roughly equal to GTGTG)
GTGTG	binds	–
TGTGT	–	binds
